Anti-infective test results gathered from many reports (values: NIAID ChemDB through PubChem).

Shared fields: tests in culture; organism: Mycobacterium tuberculosis

Two numbers with a dash give a range or band.

SMILES	dose	strain	read-out	setting	method	value
CN[C@H]1CCN(c2c(F)cc3c(=O)c(C(=O)O)cn4c3c2OC[C@@H]4C)C1		Rifampicin-sensitive (7 strains pooled)	Mean MIC			3.2 µg/mL
C[C@H]1NCc2cc(-c3ccc4c(=O)c(C(=O)O)cn(C5CC5)c4c3OC(F)F)ccc21		M-4	MIC			0.0313 µg/mL
C[C@H]1COc2c(N3CCN(C)CC3)c(F)cc3c(=O)c(C(=O)O)cn1c23		XDR-TB	MIC		agar	16 µg/mL
CCCCCCCCOc1ccccc1NC(=O)OCCC[NH+]1CCCCC1		My 331/88	MIC			8 µM
C=C[C@]1(C)CC=C2C(CCC3[C@](C)(CO)CCC[C@@]23C)C1		H37Rv (ATCC 27294)	MIC			16 µg/mL
CCCCCCCCCCCCCCCOC(COC[C@H]1O[C@@H]2OC(C)(C)O[C@@H]2[C@H]2OC(C)(C)O[C@H]21)Cn1cc([N+](=O)[O-])nc1C		H37Rv	MIC		agar	3.13 µg/mL
COc1ccccc1N=Nc1c(-c2cccs2)nn(C(=S)SC)c1C(F)(F)F	128 µg/mL	H37Rv	inhibition		BACTEC	100%
Cc1cc(=O)oc2cc(OC(=O)CNC3N=C(c4ccc(F)cc4)C=C(c4ccccc4O)S3)c([N+](=O)[O-])cc12		H37Rv	MIC99		broth dilution	1000 µg/mL
COC(=O)C1=C(C)NC(Nc2cccc(Br)c2)=NC1c1ccc(Cl)cc1		H37Rv	MIC		agar	4 µg/mL
CCCCOc1ccc(NC(=O)OCCC[NH+]2CCCCC2)cc1		My 331/88	MIC			125 µM
COC(=O)C1=C(C)NC(Nc2ccc([N+](=O)[O-])cc2O)=NC1c1ccc(Cl)cc1		XDR-TB	MIC		agar	>64 µg/mL
Cc1c2ccncc2cc2c1[nH]c1ccccc12	6.25 µg/mL	H37Rv	inhibition		resazurin	100%
O=C(COc1ccc(Br)c2c1CCC2)N/N=C/c1cc2cc(F)ccc2[nH]c1=O		H37Rv	MIC		resazurin / visual reading	50 µg/mL
COC1=NS(=O)(=O)N=C(C)O1		H37Rv	MIC bound		BACTEC	>12.5 µg/mL
NNC(=O)c1ccncc1		Rifampicin-sensitive (7 strains pooled)	Mean MIC			>33 µg/mL
N/C(=N\N=C\c1ccccc1O)SCc1ccc(Br)cc1		H37Rv	MIC	14 d	broth dilution	16 µM
CCCCCCCCOc1cccc(NC(=O)OCCC[NH+]2CCCCC2)c1		My 331/88	MIC			16 µM
NC(=O)c1[nH]c(=S)sc1N		H37Rv	MIC bound		BACTEC	>12.5 µg/mL
Fc1ccc(Nc2nnc(-c3ccc(NC(=S)Nc4ccccc4)cc3)s2)cc1	6.25 µg/mL	H37Rv	inhibition		BACTEC	0%
CCOC(=O)c1csc(-c2csc(CCNC(=O)c3ccccc3)n2)n1	12.8 µg/mL	H37Rv	inhibition		BACTEC	26%
Cc1cc(=O)oc2cc(OC(=O)CNC3N=C(c4ccc(F)cc4)C=C(c4cccc(Br)c4)S3)c([N+](=O)[O-])cc12		H37Rv	MIC99		broth dilution	500 µg/mL
CC1(C)CC[C@]2(C(=O)O)CCC3C(=CCC4[C@@]3(C)CCC3C(C)(C)[C@H](O)CC[C@@]34C)C2C1		H37Rv (ATCC 27294)	MIC			16 µg/mL
C[C@@H]1NCc2cc(-c3ccc4c(=O)c(C(=O)O)cn(C5CC5)c4c3OC(F)F)ccc21		M-4	MIC			0.125 µg/mL
O=C(COc1cccc2c1CCC2)N/N=C/c1cc2cc(F)ccc2[nH]c1=O		H37Rv	MIC		resazurin / visual reading	25 µg/mL
Cc1c([N+](=O)[O-])ncn1C[C@H]1O[C@@H]2OC(C)(C)O[C@@H]2[C@H]2OC(C)(C)O[C@H]21		H37Rv	MIC		agar	3.13 µg/mL
COC(=O)C1=C(C)NC(Nc2cccc(C#N)c2)=NC1c1ccc(Cl)cc1		XDR-TB	MIC		agar	>64 µg/mL
N/C(=N\N=C\c1cc(Cl)ccc1O)SCc1ccc(Cl)cc1		H37Rv	MIC	14 d	broth dilution	16 µM
CCn1cc(C(=O)O)c(=O)c2cc(F)c(N3CCNCC3)cc21		H37Rv	MIC			15.6 µg/mL
CC(C)c1ccc2c(c1)CCC1[C@@]2(C)CCC[C@]1(C)C(=O)O		H37Rv (ATCC 27294)	MIC			64 µg/mL
NNC(=O)c1ccncc1		10 isolates	MIC			0.06–0.48 µg/mL
CCOc1ccc(-c2cc(=O)c3c(OC)c(OC)c(OC)c(OC)c3o2)cc1		H37Rv	MIC bound			>6.25 µg/mL
CCNc1nnc(-c2ccc(N)cc2)s1	6.25 µg/mL	H37Rv	inhibition		BACTEC	34%
COC(=O)C1=C(C)NC(Nc2ccc(F)c(Br)c2)=NC1c1ccc(Cl)cc1		MDR-TB	MIC		agar	32 µg/mL
CN1C(C)(C)CC(CN2c3ccccc3Sc3ccccc32)C1(C)C.O=C(O)/C=C\C(=O)O	12.5 µg/mL	H37Rv	inhibition		BACTEC	49%
N/C(=N\N=C\c1ccccc1O)SCc1cccc(Cl)c1		H37Rv	MIC	21 d	broth dilution	32 µM
CCCOc1ccc(NC(=O)OCCC[NH+]2CCCCC2)cc1		My 331/88	MIC			125 µM
Cc1ccc(CS/C(N)=N/N=C/c2ccccc2)cc1		H37Rv	MIC	21 d	broth dilution	62.5 µM
CN(C)C1=CC(=O)C(=O)c2ncccc21		H37Rv	MIC bound			>6.25 µg/mL
CCOC(=O)c1cn(-c2ccc(N)cc2F)c2cc(N3CCN(C)CC3)c(F)cc2c1=O	6.25 µg/mL	H37Rv	inhibition		BACTEC	0%
CNc1nnc(-c2ccc(N)cc2)s1	6.25 µg/mL	H37Rv	inhibition		BACTEC	29%
COc1ccc(CS/C(N)=N/N=C/c2cc(Br)ccc2O)cc1		H37Rv	MIC	21 d	broth dilution	62.5 µM
Cl.O=C(NCCCCCCNC(=O)N1CCCCC1)c1cccnc1		H37Rv	MIC bound		BACTEC	>12.5 µg/mL
N/C(=N\N=C\c1ccccc1)SCc1ccc(C(F)(F)F)cc1		H37Rv	MIC	14 d	broth dilution	32 µM
CCNc1nnc(-c2ccc(N=N/C(C(C)=O)=C(/C)O)cc2)s1	6.25 µg/mL	H37Rv	inhibition		BACTEC	39%
CCCc1ccc(C2=CC(c3ccc(F)cc3)=NC(NCC(=O)Oc3cc4oc(=O)cc(C)c4cc3[N+](=O)[O-])S2)cc1		H37Rv	MIC99		broth dilution	62.5 µg/mL
N/C(=N\N=C\c1ccccc1)SCc1cccc(Cl)c1		H37Rv	MIC	14 d	broth dilution	32 µM
CC(C)c1ccc2c(c1)CCC1[C@@](C)(COC(=O)CC(=O)O)CCC[C@@]21C		H37Rv (ATCC 27294)	MIC			4 µg/mL
Cc1cc(=O)oc2cc(OC(=O)CNC3N=C(c4ccc(F)cc4)C=C(c4ccc(F)cc4)S3)c([N+](=O)[O-])cc12		H37Rv	MIC97		broth dilution	>1000 µg/mL
COc1ccc2c(c1)[n+]([O-])c(C(N)=O)c(N)[n+]2[O-]		PZA-R	MIC			6.3 µg/mL
CCCCCOc1ccc(NC(=O)OCCC[NH+]2CCCCC2)cc1		My 331/88	MIC			16 µM
CNc1nnc(-c2ccc(N=N/C(C(C)=O)=C(/C)O)cc2)s1	6.25 µg/mL	H37Rv	inhibition		BACTEC	46%
CC(=O)Nc1ccc(-n2cc(C(=O)O)c(=O)c3cc(F)c(N4CCN(C)CC4)cc32)c(F)c1	6.25 µg/mL	H37Rv	inhibition		BACTEC	18%
CCCCCCCCCCCCCCCOC(COC[C@H]1O[C@@H]2OC(C)(C)O[C@@H]2[C@H]2OC(C)(C)O[C@H]21)Cn1cnc([N+](=O)[O-])c1C		H37Rv	MIC		agar	3.13 µg/mL
C=C[C@]1(C)CCC2=C(CCC3[C@](C)(CO)CCC[C@@]23C)C1		H37Rv (ATCC 27294)	MIC			64 µg/mL
CC(C)C(N)C(=O)NN	12.5 µg/mL	H37Rv	inhibition		BACTEC	8%
CCn1cc(C(=O)O)c(=O)c2cc(F)c(N3CCN(C/C(C)=N/O)CC3)c(F)c21	6.25 µg/mL	H37Rv	inhibition		BACTEC	34%
CCCCCCCCCCCCOc1ccccc1NC(=O)OCCC[NH+]1CCCCC1		My 331/88	MIC			16 µM
CC(=O)NCC1CN(c2ccc(C(C)=O)cc2)C(=O)O1		10 isolates	MIC			1.5–2.5 µg/mL
O=C(NCc1ccccc1)C1C(=O)N(Cc2ccccc2)C(=O)/C1=N\O	6.25 µg/mL	H37Rv	inhibition		resazurin	-5%
C[C@H]1[C@H](C)Oc2c3c(c4c(c2[C@H]1O)OC(=O)CC4c1ccccc1)OC(C)(C)C=C3		H37Rv	MIC		BACTEC	<12.5 µg/mL
Cc1ccc(S(=O)(=O)Nc2ccccc2-c2nc3ccc(C)cc3c(=O)o2)cc1	12.5 µg/mL	H37Rv	inhibition		BACTEC	55%
CNc1ccccc1C(=O)O[C@@H]1[C@@H](C)[C@]2(O)[C@@H]3C=C(C)C(=O)[C@@H]3CC(C)=C[C@H]2[C@@H]2C(C)(C)[C@]12OC(=O)O		H37Ra	MIC			200 µg/mL
C[C@H]1COc2c(N3C[C@@H]4CCCN[C@@H]4C3)c(F)cc3c(=O)c(C(=O)O)cn1c23		Rifampicin-resistant (5 strains pooled)	Mean MIC			0.4 µg/mL
Nc1cc(O)c(O)c2c1C(=O)c1c(O)c(O)cc(N)c1C2=O		H37Rv	MIC bound		BACTEC	>12.5 µg/mL
CO[C@H]1/C=C/O[C@@]2(C)Oc3c(C)c(O)c4c(O)c(c5c(c4c3C2=O)NC2(CCN(CC(C)C)CC2)N=5)=NC(=O)/C(C)=C\C=C\[C@H](C)[C@H](O)[C@@H](C)[C@@H](O)[C@@H](C)[C@H](OC(C)=O)[C@@H]1C		3181-5 (RIF-S)	MIC			0.03 µg/mL
Cc1cc(=O)oc2cc(OC(=O)CNC3N=C(c4ccc(F)cc4)C=C(c4ccccc4Cl)S3)c([N+](=O)[O-])cc12		H37Rv	MIC98		broth dilution	62.5 µg/mL
COc1ccc2c(c1)n([O-])c1ccccc1[n+]2=O	12.5 µg/mL	H37Rv	inhibition		BACTEC	100%
CCOC(=O)c1cn(-c2ccc(N)cc2)c2cc(N3CCN(C)CC3)c(F)cc2c1=O	6.25 µg/mL	H37Rv	inhibition		BACTEC	0%
N/C(=N\N=C\c1ccccc1)SCc1ccc(Br)cc1		H37Rv	MIC	21 d	broth dilution	32 µM
CCCCOc1cccc(NC(=O)OCCC[NH+]2CCCCC2)c1		My 331/88	MIC			62.5 µM
Oc1ccc([C@H]2Oc3c(c(O)cc4c3[C@H]3c5c(O)cc(O)cc5C[C@@](c5ccc(O)cc5)(O4)[C@H]3O)CC2O)cc1	12.5 µg/mL	H37Rv	inhibition		BACTEC	10%
C=C[C@]1(C)CC=C2C(CCC3[C@](C)(COC(=O)CC(=O)O)CCC[C@@]23C)C1		H37Rv (ATCC 27294)	MIC			8 µg/mL
Nc1nnnn1NC(=O)c1ccccc1		H37Rv	MIC bound		BACTEC	>12.5 µg/mL
CC[C@@H](CC[C@@H](C)[C@H]1CCC2C3C[C@@H](O)C4=CC(=O)CC[C@]4(C)C3CC[C@@]21C)C(C)C		H37Rv (ATCC 27294)	MIC			2 µg/mL
CC1(C)O[C@H]2[C@@H](O1)[C@@H](Cn1cnc([N+](=O)[O-])c1)O[C@@H]1OC(C)(C)O[C@@H]12		H37Rv	MIC		agar	>12.5 µg/mL
COc1ccc2c(c1)[n+](=O)c(C(=O)C/C(=N\NC(=O)C[N+](C)(C)C)C(=O)Nc1cccc(C)c1C)c(C)n2[O-].[Cl-]		H37Rv	MIC		BACTEC	≥12.5 µg/mL
CC(=O)/C(N=Nc1ccc(-c2nnc(NC3CCCCC3)s2)cc1)=C(\C)O	6.25 µg/mL	H37Rv	inhibition		BACTEC	11%
CCOC(=O)c1cc(C2CCN(Cc3ccccc3)C2=O)c(C(=O)/C=C(\C)N)[nH]1	6.25 µg/mL	H37Rv	inhibition		resazurin	-1%
Cc1c([N+](=O)[O-])ncn1CC(O)COC[C@H]1O[C@@H]2OC(C)(C)O[C@@H]2[C@H]2OC(C)(C)O[C@H]21		H37Rv	MIC		agar	1.56 µg/mL
[N-]=[N+]=CC(=O)NCC(=O)NN		H37Rv	MIC bound		BACTEC	>12.5 µg/mL
CCn1cc(C(=O)O)c(=O)c2cc(F)c(N3CCN(C/C(=N/O)c4ccccc4)CC3)cc21	6.25 µg/mL	H37Rv	inhibition		BACTEC	28%

9 of the rows above, restated:

| SMILES | dose | strain | read-out | setting | method | value |
|---|---|---|---|---|---|---|
| CCOC(=O)c1csc(-c2csc(CCNC(=O)c3ccccc3)n2)n1 | 12.8 µg/mL | H37Rv | inhibition |  | BACTEC | 26% |
| CCn1cc(C(=O)O)c(=O)c2cc(F)c(N3CCNCC3)cc21 |  | H37Rv | MIC |  |  | 15.6 µg/mL |
| CC(C)c1ccc2c(c1)CCC1[C@@](C)(COC(=O)CC(=O)O)CCC[C@@]21C |  | H37Rv (ATCC 27294) | MIC |  |  | 4 µg/mL |
| CC(=O)/C(N=Nc1ccc(-c2nnc(NC3CCCCC3)s2)cc1)=C(\C)O | 6.25 µg/mL | H37Rv | inhibition |  | BACTEC | 11% |
| N/C(=N\N=C\c1ccccc1)SCc1ccc(C(F)(F)F)cc1 |  | H37Rv | MIC | 14 d | broth dilution | 32 µM |
| Cc1cc(=O)oc2cc(OC(=O)CNC3N=C(c4ccc(F)cc4)C=C(c4ccccc4Cl)S3)c([N+](=O)[O-])cc12 |  | H37Rv | MIC98 |  | broth dilution | 62.5 µg/mL |
| COc1ccc2c(c1)[n+](=O)c(C(=O)C/C(=N\NC(=O)C[N+](C)(C)C)C(=O)Nc1cccc(C)c1C)c(C)n2[O-].[Cl-] |  | H37Rv | MIC |  | BACTEC | ≥12.5 µg/mL |
| N/C(=N\N=C\c1cc(Cl)ccc1O)SCc1ccc(Cl)cc1 |  | H37Rv | MIC | 14 d | broth dilution | 16 µM |
| COC(=O)C1=C(C)NC(Nc2cccc(C#N)c2)=NC1c1ccc(Cl)cc1 |  | XDR-TB | MIC |  | agar | >64 µg/mL |

Inhibition is in % at the dose shown (toxicity tests: loss of growth or viability). Lines come from different laboratories, so protocols vary. A number after MIC or MFC names an inhibition level or a share of isolates. MIC bound comes from a single tested concentration. An empty or dashed field is not shown.